Reference: patent publication US9307782B2, “Mannanase produced from Cellulosimicrobium sp. strain HY-13” (Korea Research Institute of Bioscience and Biotechnology, priority 2011, dated 2016)

Assay: Optimum reaction temperature and pH of the mannanase
Type: biochemical
Details: maximum degrading activity with locust bean gum

Molecule | Opt. temp. [°C]
Mannanase: Wild type β-1,4-mannanase of Bacillus subtilis WY34 (protein, cellulosimicrobium, Wild type β-1,4-mannanase of Bacillus subtilis WY34) MRRLFAIVLGAVLALLAVPALAQGASVASDGFSVQDGRIYDANGNRFVPVGVNHAHAWYPSQTQSFADIRAAGANTVRVVLSGGRYGTSSAADVSAVVERCKQNQLVCILENHDTTGYGEDGSARSLASAAQYWTSIASVLRGQERYVMINIGNEPFGNSGFQSWTTDTIAAIRTLRAAGLDHTLVVDAPNWGQDWSFTMRDNAPTVAAADGNVVFSVHMYGVFDTGAEVRAYLDSFTSRGLPIMVGEFGDNHSDGNPDEATIMSYTRSQGIGMLGWSWSGNGGGVEYLDMVNGFSASSLTPWGQRFVHGADGLRARNAPAASVYGGDGGDGDGGAGTAPNGYPYCASASSDPDGDGWGWESSASCVVRGSSADTGSGGGSGSGSTAPNGYPYCASASSDPDGDGWGWESSASCVVRGSSADR | 50
rManH: Recombinant GH5 β-1,4-mannanase of Cellulosimicrobium sp. HY-13 produced in E. coli; SEQ. ID. NO: 1; approximately 44 kDa (protein, cellulosimicrobium, Recombinant GH5 β-1,4-mannanase of Cellulosimicrobium sp; HY-13 produced in E. coli; ID; NO: 1; approximately 44 kDa) MRRLFAIVLGAVLALLAVPALAQGASVASDGFSVQDGRIYDANGNRFVPVGVNHAHAWYPSQTQSFADIRAAGANTVRVVLSGGRYGTSSAADVSAVVERCKQNQLVCILENHDTTGYGEDGSARSLASAAQYWTSIASVLRGQERYVMINIGNEPFGNSGFQSWTTDTIAAIRTLRAAGLDHTLVVDAPNWGQDWSFTMRDNAPTVAAADGNVVFSVHMYGVFDTGAEVRAYLDSFTSRGLPIMVGEFGDNHSDGNPDEATIMSYTRSQGIGMLGWSWSGNGGGVEYLDMVNGFSASSLTPWGQRFVHGADGLRARNAPAASVYGGDGGDGDGGAGTAPNGYPYCASASSDPDGDGWGWESSASCVVRGSSADTGSGGGSGSGSTAPNGYPYCASASSDPDGDGWGWESSASCVVRGSSADR | 50
